Results deposited as PubChem BioAssay AID1259414 (Drosophila RNAi Screening Center, 2018).
Test: 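Fly genes that alter Wolbachia amount inside host cells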 (primary screen). Cells: Drosophila JW18 cells infected with Wolbachia. Reagents: long dsRNA against Drosophila genes, 0.25 µg dsRNA per well of a 384-well plate. Time to read-out: 5 days. Treatment: cells persistently infected with Wolbachia before knock-down; no added drug. Measured: 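Automated imaging of bacterial rRNA staining divided by host cell count, reported as plate-normalised robust z-score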. Scale: Wolbachia per cell robust z: higher = more Wolbachia per host cell than the plate typical. Call rule: 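Active if absolute robust z reaches 1.5 in two or more of three replicates, leaving out multi- or no-target dsRNAs, genes unexpressed in JW18 and A1 wells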.
In all, the deposit lists about 24,000 reagents; below is a random part of those that have a named target and a result. In the full data, about 1,210 (5%) are marked active. 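Inactive calls also include excluded dsRNAs with several or no targets, genes unexpressed in JW18, and well A1, regardless of score.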 A number with no mark means an inactive call. Names joined by + are all predicted targets of the reagent.

| Target gene | DRSC id | Wolbachia per cell robust z, rep 1 | Wolbachia per cell robust z, rep 2 | Wolbachia per cell robust z, rep 3 |
| --- | --- | --- | --- | --- |
| Ir84a | DRSC12510 | 0.246 | 0.0879 | 0.272 |
| Ir84a | DRSC27487 | 0.266 | 0.361 | -0.296 |
| Mal-B2 | DRSC02417 | 0.61 | 0.137 | 0.338 |
| CG31268 | DRSC13203 | -1.06 | -0.0107 | 0.146 |
| CG34241 | DRSC38845 | 0.623 | 0.0727 | 0.463 |
| RpS30 | DRSC15119 | 2.23 | 1.45 | 1.26 |
| RpS30 | DRSC26355 | 3.88 (active) | 5.02 | 6.06 |
| CG1703 | DRSC19764 | -1.17 | -0.59 | 0.239 |
| Dop2R | DRSC20683 | 0.526 | 0.00627 | -0.173 |
| Dop2R | DRSC29286 | 0.487 | 1.31 | 0.855 |
| pip | DRSC11382 | -0.256 | -0.139 | -0.66 |
| pip | DRSC28579 | -5.57 | -8.94 | -7.6 |
| CG14195 | DRSC19550 | -0.693 | -1.54 | -0.164 |
| ort | DRSC16240 | -0.447 | -0.354 | 0.247 |
| ort | DRSC40854 | 1.28 | -0.524 | 1.46 |
| Prp16 | DRSC19538 | -0.392 | -0.0263 | 0.77 |
| Prp16 | DRSC19542 | 0.204 | -0.178 | 0.00388 |
| Prp16 | DRSC40741 | 0.872 | 0.116 | 0.501 |
| CG8517 | DRSC07205 | 0.533 | -0.133 | -0.347 |
| Pmvk | DRSC02032 | 0.0196 | -0.106 | 0.726 |
| Taf4 | DRSC11297 | -1.25 | 0.325 | -1.23 |
| Taf4 | DRSC25921 | -0.0465 (active) | 2.23 | 1.86 |
| CG42232 | DRSC15018 | -0.643 | -0.559 | 0.738 |
| CG42232 | DRSC15019 | 0.419 | 0.896 | -0.437 |
| CG42232 | DRSC29868 | -0.601 | 1.02 | -4.44 |
| CG31546 | DRSC12317 | -0.64 | -4.78 | -0.777 |
| CG31546 | DRSC25825 | 0.747 | -0.641 | -0.447 |
| CG9171 | DRSC03152 | -0.0326 | -0.0253 | 0.33 |
| CG9171 | DRSC21813 | 0.00486 | 0.0772 | -1.38 |
| CG9171 | DRSC24830 | 0.519 | -0.92 | 0.801 |
| CG5532 | DRSC04509 | 1.08 | 0.233 | -0.649 |

8 entries from above in another layout:
Target gene,DRSC id,"Wolbachia per cell robust z, rep 1","Wolbachia per cell robust z, rep 2","Wolbachia per cell robust z, rep 3"
Prp16,DRSC40741,0.872,0.116,0.501
CG8517,DRSC07205,0.533,-0.133,-0.347
Pmvk,DRSC02032,0.0196,-0.106,0.726
Taf4,DRSC11297,-1.25,0.325,-1.23
Taf4,DRSC25921,-0.0465 (active),2.23,1.86
CG42232,DRSC15018,-0.643,-0.559,0.738
CG42232,DRSC15019,0.419,0.896,-0.437
CG42232,DRSC29868,-0.601,1.02,-4.44

The listing continues.
| Target gene | DRSC id | Wolbachia per cell robust z, rep 1 | Wolbachia per cell robust z, rep 2 | Wolbachia per cell robust z, rep 3 |
| --- | --- | --- | --- | --- |
| CG13021 | DRSC17893 | 0.0104 | -0.282 | -0.656 |
| CG11362 | DRSC04106 | 0.381 | 0.216 | -0.139 |
| CG11362 | DRSC22032 | 1.04 | 0.897 | 1.28 |
| CG11362 | DRSC27136 | 0.457 | -1.12 | -0.0996 |
| CtsB | DRSC19361 | -0.208 | -0.786 | -1.63 |
| kappaB-Ras + CG30503 | DRSC06619 | 0.338 | -0.2 | 0.796 |
| kappaB-Ras + CG30503 | DRSC07636 | 0.542 | 0.866 | 0.0531 |
| CG32263 | DRSC22431 | 0.828 | -5.52 | 1.23 |
| CG32263 | DRSC29009 | -0.0565 | -0.424 | 0.243 |
| CG8312 | DRSC16406 | -5.37 | -1.49 | 0.298 |
| side-II | DRSC01913 | 1.15 | -0.675 | 0.989 |
| side-II | DRSC01932 | -1.83 | -0.706 | -0.221 |
| side-II | DRSC02480 | 1.14 | 0.286 | -0.243 |
| side-II | DRSC22508 | 0.135 | 0.319 | 0.141 |
| side-II | DRSC25118 | 0.925 | 0.178 | 0.85 |
| Nep5 | DRSC16004 | -0.0401 | 1.73 | -0.956 |
| Gprk1 | DRSC20732 | -0.506 | -0.593 | -0.697 |
| Gprk1 | DRSC20916 | 1 | -0.116 | -10.5 |
| Atg18a | DRSC10943 | 0.175 | -8.87 | 0.108 |
| sls | DRSC08528 | 0.848 | 0.494 | -0.174 |
| sls | DRSC08540 | -2.2 (active) | 1.26 | -2.3 |
| sls | DRSC08670 | 0.0636 | 0.951 | 0.72 |
| sls | DRSC40674 | -2.97 (active) | -1.74 | 0.542 |
| CG17440 | DRSC18126 | -0.238 | -1.15 | 0.163 |
| CG17440 | DRSC41285 | 0.123 | -0.673 | -0.85 |
| scu | DRSC20369 | 0.388 | 0.791 | 0.0607 |
| scu | DRSC27026 | 0.894 | -4.37 | 0.298 |
| CG45076 + CG45078 + fau | DRSC22360 | 0.813 | 0.933 | -0.592 |
| CanB | DRSC18449 | -0.84 | 1.32 | 0.491 |
| CanB | DRSC29220 | 0.147 | 0.443 | -0.245 |
| CanB | DRSC41553 | -1.66 | -0.676 | -0.252 |
| l(2)09851 | DRSC04858 | 1.01 | -0.142 | 1.08 |
| TM9SF4 | DRSC01888 | -0.475 | 0.0413 | 0.763 |
| Pkn | DRSC06810 | -1.06 | 0.06 | 0.0693 |
| Pkn | DRSC25936 | 1.07 | 1.5 | 0.277 |
| CG14642 | DRSC12228 | -0.0318 | -1.28 | 0.72 |
| mRpS17 | DRSC04463 | -0.106 | 1.16 | 1.15 |
